Positions that govern dimerization of the HIV-1 5' RNA

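Mutant RNA libraries with 1G, 2G or 3G starts, with or without cap, were folded at 37 °C for 30 min. Monomer and dimer bands were cut from native gels after folding in high salt (300 mM KCl, 5 mM MgCl2) or low salt (40 mM KCl, 0.1 mM MgCl2). Mutation frequencies in the two bands give Kdimer.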

The 5' region of HIV-1 NL4-3 RNA (positions 1-437):
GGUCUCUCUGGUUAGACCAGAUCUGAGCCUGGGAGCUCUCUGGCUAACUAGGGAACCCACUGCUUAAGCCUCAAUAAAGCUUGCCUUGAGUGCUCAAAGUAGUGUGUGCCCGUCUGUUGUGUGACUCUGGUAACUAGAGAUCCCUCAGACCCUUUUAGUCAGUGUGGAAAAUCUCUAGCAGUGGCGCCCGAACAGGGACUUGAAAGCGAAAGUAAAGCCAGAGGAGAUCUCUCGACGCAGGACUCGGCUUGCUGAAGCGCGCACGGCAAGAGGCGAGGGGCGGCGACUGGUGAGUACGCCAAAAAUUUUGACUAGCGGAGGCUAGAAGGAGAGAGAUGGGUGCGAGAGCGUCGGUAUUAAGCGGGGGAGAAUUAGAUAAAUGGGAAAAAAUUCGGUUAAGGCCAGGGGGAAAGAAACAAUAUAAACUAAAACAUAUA

Scale: median log2 Kdimer over the changes at a position; positive = changes inhibit dimerization, negative = changes enhance it. One numbering serves 1G, 2G and 3G. A position is written with its base where known. Bases beyond 437 are not listed in the source.

position 452 gave 1G capped low-salt -0.02; 3G uncapped low-salt 0.08.
U341 gave 1G capped low-salt 0.05; 3G uncapped low-salt 0.90.
C236 gave 1G capped low-salt 1.73; 3G uncapped low-salt 1.69.
position 490 gave 1G capped low-salt 0.02; 3G uncapped low-salt -0.18.
A169 gave 1G capped low-salt 0.00; 3G uncapped low-salt 0.05.
U250 gave 1G capped low-salt 2.53; 3G uncapped low-salt 1.87.
A255 gave 1G capped low-salt -0.53; 3G uncapped low-salt -0.36.
U436 gave 1G capped low-salt 0.03; 3G uncapped low-salt -0.14.
A140 gave 1G capped low-salt 0.32; 3G uncapped low-salt 0.35.
A296 gave 1G capped low-salt 0.21; 3G uncapped low-salt 0.19.
U87 gave 1G capped low-salt 0.34; 3G uncapped low-salt 0.00.
A433 gave 1G capped low-salt -0.10; 3G uncapped low-salt -0.01.
U94 gave 1G capped low-salt 0.33; 3G uncapped low-salt 0.50.
position 494 gave 1G capped low-salt -0.02; 3G uncapped low-salt 0.13.
U64 gave 1G capped low-salt 0.16; 3G uncapped low-salt -0.12.
U172 gave 1G capped low-salt 0.48; 3G uncapped low-salt 0.30.
A414 gave 1G capped low-salt -0.01; 3G uncapped low-salt -0.03.
U45 gave 1G capped low-salt -0.04; 3G uncapped low-salt -0.11.
U156 gave 1G capped low-salt -0.24; 3G uncapped low-salt -0.02.
position 463 gave 1G capped low-salt 0.04; 3G uncapped low-salt -0.12.
G112 gave 1G capped low-salt 0.14; 3G uncapped low-salt 1.13.
G221 gave 1G capped low-salt 0.26; 3G uncapped low-salt 0.51.
G202 gave 1G capped low-salt -0.20; 3G uncapped low-salt -0.24.
position 444 gave 1G capped low-salt 0.07; 3G uncapped low-salt 0.22.
A437 gave 1G capped low-salt 0.00; 3G uncapped low-salt -0.02.
G51 gave 1G capped low-salt -0.06; 3G uncapped low-salt -0.18.
C70 gave 1G capped low-salt 0.10; 3G uncapped low-salt 0.22.
U39 gave 1G capped low-salt -0.02; 3G uncapped low-salt -0.10.
A149 gave 1G capped low-salt -0.12; 3G uncapped low-salt -0.31.
U91 gave 1G capped low-salt -0.13; 3G uncapped low-salt -0.25.
G321 gave 1G capped low-salt 0.67; 3G uncapped low-salt 0.85.
C95 gave 1G capped low-salt 0.05; 3G uncapped low-salt 0.64.
A50 gave 1G capped low-salt -0.13; 3G uncapped low-salt -0.17.
A398 gave 1G capped low-salt 0.03; 3G uncapped low-salt 0.00.
C274 gave 1G capped low-salt 0.89; 3G uncapped low-salt 1.24.
G104 gave 1G capped low-salt -0.11; 3G uncapped low-salt -0.21.
G342 gave 1G capped low-salt -0.09; 3G uncapped low-salt 0.25.
U420 gave 1G capped low-salt -0.06; 3G uncapped low-salt -0.01.
G27 gave 1G capped low-salt -0.86; 3G uncapped low-salt -0.97.
G407 gave 1G capped low-salt -0.06; 3G uncapped low-salt 0.06.
U397 gave 1G capped low-salt 0.04; 3G uncapped low-salt -0.06.
G401 gave 1G capped low-salt 0.01; 3G uncapped low-salt 0.10.
C417 gave 1G capped low-salt 0.06; 3G uncapped low-salt 0.22.
A26 gave 1G capped low-salt 0.12; 3G uncapped low-salt -0.26.
A203 gave 1G capped low-salt 0.67; 3G uncapped low-salt 0.74.
G283 gave 1G capped low-salt -0.28; 3G uncapped low-salt 0.13.
A379 gave 1G capped low-salt -0.05; 3G uncapped low-salt -0.02.
A205 gave 1G capped low-salt -0.03; 3G uncapped low-salt -0.06.

Extract of 5 entries:

| position | 1G capped low-salt | 3G uncapped low-salt |
|---|---|---|
| A205 | -0.03 | -0.06 |
| G27 | -0.86 | -0.97 |
| U91 | -0.13 | -0.25 |
| 444 | 0.07 | 0.22 |
| G407 | -0.06 | 0.06 |

Reference: Ye et al. 2022, doi:10.1038/s41594-022-00746-2.